Usually Km stands for the substrate concentration at which the rate is half of its maximum.

The data set relates to O=C(O)c1cc(SSc2ccc([N+](=O)[O-])c(C(=O)O)c2)ccc1[N+](=O)[O-]. The experiment in a line: purified protein. The settings on record: pH 7.0.

“MtbFHb (Mycobacterium tuberculosis H37Rv)”: the Km came out at 98.5 ± 6.8 µM.

Values taken from publication PMC8883573, “New Insights Into the Function of Flavohemoglobin in Mycobacterium tuberculosis: Role as a NADPH-Dependent Disulfide Reductase and D-Lactate-Dependent Mycothione Reductase” (Frontiers in Cellular and Infection Microbiology, 2022).
